Results of unrelated studies side by side (data: NIAID ChemDB).

Common to all: growth or infection tests; organism: Candida albicans; endpoint: MIC

Blank or dashed fields: not listed here. a–b is a range or a potency band. Conditions beyond the fields shown may differ between rows.

SMILES | strain | read by | result
CC1C=C(c2ccc(Cl)cc2)C(=O)O1 | ATCC 44859 | - | >125 µM
CCCCCOc1ccc(-c2ccc(-c3ccc(C(=O)N[C@H]4CCCNC(=O)C5C[C@H](NS(C)(=O)=O)CN5C(=O)C(C(C)O)NC(=O)C(CCc5ccc(O)cc5)NC(=O)C5C[C@@H](O)CN5C(=O)C(C(C)O)NC4=O)cc3)cc2)cc1 | ATCC 62376 | - | 0.2 µg/mL
CC1(C)N=C(N)N=C(N)N1OCCCCCCON1C(N)=NC(N)=NC1(C)C | - | - | >60 µg/mL
O=[N+]([O-])c1ccc(-c2nc3ccccn3c2O)cc1 | A | - | >125 µg/mL
CCCCn1nc(C)c(N=O)c1-c1cc(C)on1 | - | - | 22 µM
CCCCCOc1ccc(-c2ccc(-c3ccc(C(=O)N[C@H]4CCCNC(=O)[C@@H]5C[C@H](N)CN5C(=O)[C@@H]([C@H](C)O)NC(=O)C(CCc5ccc(O)cc5)NC(=O)[C@@H]5C[C@@H](O)CN5C(=O)[C@H]([C@@H](C)O)NC4=O)cc3)cc2)cc1 | ATCC CCH442 | - | 6.25 µg/mL
CCCCCCC(Cn1ccnc1)c1ccc(Cl)cc1Cl | - | - | 10 µg/mL
CCC(=O)N1CCC(n2cc(-c3nc(-c4ccc(C)cc4)n[nH]3)nn2)CC1 | - | agar | 160 µg/mL
CCCCCOc1ccc(-c2ccc(-c3ccc(C(=O)N[C@H]4CCCNC(=O)C5C[C@H](NC(=O)NCCC(C)C)CN5C(=O)C(C(C)O)NC(=O)C(CCc5ccc(O)cc5)NC(=O)C5C[C@@H](O)CN5C(=O)C(C(C)O)NC4=O)cc3)cc2)cc1 | ATCC 62376 | - | 12.5 µg/mL
CC(=O)c1cccc(-c2nc3ncccn3c2O)c1 | A | - | >125 µg/mL
CCC(C)CC(C)CCCCCCCCC(=O)N[C@H]1C[C@@H](O)[C@@H](OCCN)NC(=O)[C@@H]2[C@@H](O)CCN2C(=O)[C@H]([C@@H](O)CCN)NC(=O)[C@H]([C@H](O)[C@@H](O)c2ccc(O)cc2)NC(=O)[C@@H]2C[C@@H](O)CN2C(=O)[C@H]([C@H](C)O)NC1=O | - | - | 0.06 µg/mL
O=C(c1ccccc1)c1ccc(Br)cc1OCc1nnc2n1N=C(c1ccccc1)CS2 | - | - | 5.5 µM
CCCCCOc1ccc(-c2ccc(-c3ccc(C(=O)N[C@H]4CCCNC(=O)C5C[C@H](N)CN5C(=O)C(CCC[N+](C)(C)C)NC(=O)C(CCc5ccc(O)cc5)NC(=O)C5C[C@@H](O)CN5C(=O)C(C(C)O)NC4=O)cc3)cc2)cc1 | ATCC 62376 | - | 0.2 µg/mL
CCCCCCCCCON1C(N)=NC(N)=NC1(C)C | - | - | >60 µg/mL
CCn1nc(C)c(N)c1-c1cc(C)on1 | - | - | >200 µM
O=C1NC(=O)[C@H](Cc2ccccc2)n2c1nc1ccccc1c2=O | SC5314 | - | >100 µg/mL
CCCCCC(Cn1ccnc1)c1ccc(Cl)cc1Cl | - | - | 10 µg/mL
Oc1c(-c2ccc(Cl)cc2Cl)nc2ncccn12 | A | - | >125 µg/mL
NC(N)=Nc1ccc(-c2cc3ccc(N=C(N)N)cc3s2)cc1 | - | - | 10 µg/mL
Nn1c(COc2cc(Br)ccc2C(=O)c2ccccc2)n[nH]c1=S | - | - | 4 µM
COc1cccc(C2=CC(C)OC2=O)c1 | ATCC 44859 | - | >125 µM
CC(C)CCCCCCCCC1CC(=O)NCC(=O)N[C@@H](CCCN)C(=O)N[C@@H](C(C)C)C(=O)N1 | IFM 40009 | - | 2.5 µg/mL
CCC(C)CCCCCCCCCCC(=O)N[C@H]1C[C@@H](O)[C@@H](O)NC(=O)C2[C@@H](O)[C@@H](C)CN2C(=O)C(CO)NC(=O)C([C@H](O)C(O)c2ccc(O)cc2)NC(=O)NC(=O)[C@@H]2C[C@@H](O)CN2C(=O)[C@H]([C@@H](C)O)NC1=O | - | - | 0.97 µg/mL
CCN1CCC(n2cc(-c3nc(-c4ccccc4)n[nH]3)nn2)CC1 | - | agar | 45 µg/mL
CCCCCCCCCC(O)CC(=O)CCc1ccc(O)c(OC)c1 | A1-1 | - | >1000 µg/mL
Cc1nn2c(-c3ccncc3)nnc2s/c1=N/Nc1ccc(S(N)(=O)=O)cc1 | ATCC 66027 | broth dilution | 12.5 µg/mL
Cl.N=C(N)c1ccc2oc(CCc3cc4cc(C(=N)N)ccc4o3)cc2c1 | - | - | 3 µg/mL
CCCCCOc1ccc(-c2ccc(-c3ccc(C(=O)N[C@H]4CCCNC(=O)C5C[C@H](O)N5C(=O)C(C(C)O)NC(=O)C(CCc5ccc(O)cc5)NC(=O)C5C[C@@H](O)CN5C(=O)C(C(C)O)NC4=O)cc3)cc2)cc1 | ATCC 62376 | - | 0.39 µg/mL
CCCCCCCCCCCON1C(N)=NC(N)=NC1(C)C | - | - | 15 µg/mL
N=C(N)c1ccc(/C=C/C=C/c2cc3cc(C(=N)N)ccc3o2)cc1 | - | - | 1 µg/mL
Cc1onc(-c2nn(C)c(C)c2[N+](=O)[O-])c1[N+](=O)[O-] | - | - | >200 µM
CCCCCCCC(Cn1ccnc1)c1c(Cl)cccc1Cl | - | - | 10 µg/mL
COc1ccc(-c2n[nH]c(-c3cn(C4CCN(C)CC4)nn3)n2)cc1 | - | agar | 30 µg/mL
Cc1ccc(C(=O)c2cc(C)ccc2OCc2n[nH]c(=S)n2N)cc1 | - | - | 10.5 µM
Cc1cc(-c2cc(C)n(C)n2)no1 | - | - | >200 µM
CCCCCCOc1ccccc1CON1C(N)=NC(N)=NC1(C)C | - | - | >240 µg/mL
c1ccc(-c2n[nH]c(-c3cn(C4CCNCC4)nn3)n2)cc1 | - | agar | 50 µg/mL
CCCCCCC(Cn1ccnc1)c1ccccc1Cl | - | - | 10 µg/mL
COc1ccc(C(=O)c2cc(C)ccc2OCc2n[nH]c(=S)o2)cc1 | - | - | 8 µM
C=CC(C)(C)c1[nH]c2ccccc2c1/C=c1\[nH]c(=O)c2cccn2c1=O | SC5314 | - | >100 µg/mL
Clc1ccc(/C(Cn2ccnc2)=N\Nc2c(Cl)cccc2Cl)s1 | B | - | 6.2 µg/mL
Nc1[nH]c(=O)ncc1F | 3532-K31 | - | 1.56 µg/mL
Cc1ccc(CON2C(N)=NC(N)=NC23CCC(C)CC3)c2ccccc12 | - | - | 62.5 µg/mL
CCCCCCCCCCCCCCCC(=O)N[C@H]1C[C@@H](O)[C@@H](O)NC(=O)[C@@H]2[C@@H](O)[C@@H](C)CN2C(=O)[C@H]([C@@H](C)O)NC(=O)[C@H]([C@H](O)[C@@H](O)c2ccc(O)cc2)NC(=O)[C@@H]2C[C@@H](O)CN2C(=O)[C@H]([C@@H](C)O)NC1=O | - | - | 0.2–6.3 µg/mL
CCCCCCC(Cn1ccnc1)c1ccccc1Br | - | - | 10 µg/mL
C(/C=C/c1cc2cc(C3=NCCN3)ccc2o1)=C\c1ccc(C2=NCCN2)cc1 | - | - | >60 µg/mL
CCCCCCCC(Cn1ccnc1)c1ccc(F)cc1 | - | - | 10 µg/mL
Cc1nn2c(-c3ccncc3)nnc2s/c1=N/Nc1ccc(F)cc1 | ATCC 10231 | broth dilution | >100 µg/mL
N=C(N)c1cccc(Oc2ccc(-c3cc4ccc(C(=N)N)cc4[nH]3)cc2)c1 | - | - | 10 µg/mL
O=C(c1ccc(Cl)cc1)N1CCC(n2cc(-c3nc(-c4ccccc4)n[nH]3)nn2)CC1 | - | agar | 120 µg/mL
CCC1C=C(c2ccc(Cl)cc2)C(=O)O1 | ATCC 44859 | - | 125 µM
CC(C)CCCCCCCCCC1CC(=O)NCC(=O)N[C@@H](CCCCN)C(=O)N[C@@H](C(C)C)C(=O)N1 | ATCC 10231 | - | 2.5 µg/mL
CCC(C)C(Cn1ccnc1)c1ccc(Cl)cc1Cl | - | - | 100 µg/mL
Cc1cc(-c2nn(CCO)c(C)c2N=O)no1 | - | - | >200 µM
Cc1ccc(OCc2n[nH]c(=S)n2N)c(C(=O)c2cccc(Cl)c2)c1 | - | - | 3 µM
Cc1nn2c(-c3ccncc3)nnc2s/c1=N/Nc1ccccc1 | ATCC 10231 | broth dilution | 25 µg/mL
COc1ccc(-c2nc3ccccn3c2O)cc1 | A | - | >125 µg/mL
Cc1nn2c(-c3ccncc3)nnc2sc1=NNc1ccc(Cl)cc1 | ATCC 10231 | broth dilution | >100 µg/mL
CCC1C=C(c2cccnc2)C(=O)O1 | ATCC 44859 | - | 31.25 µM
CCCCCCCCCCCCCCCC(=O)NC1CC(O)C(O)NC(=O)C2C(O)C(C)CN2C(=O)C(C(O)CC(N)=O)NC(=O)C(C(O)C(O)c2ccc(O)c(OS(=O)(=O)O)c2)NC(=O)C2CC(O)CN2C(=O)C(C(C)O)NC1=O | - | - | 0.16 µg/mL
CC(Cn1ccnc1)c1ccc(F)cc1 | - | - | >100 µg/mL

A second listing of 9 rows from above:

SMILES | strain | read by | result
Cl.N=C(N)c1ccc2oc(CCc3cc4cc(C(=N)N)ccc4o3)cc2c1 | - | - | 3 µg/mL
Nc1[nH]c(=O)ncc1F | 3532-K31 | - | 1.56 µg/mL
Cc1ccc(C(=O)c2cc(C)ccc2OCc2n[nH]c(=S)n2N)cc1 | - | - | 10.5 µM
CCCCCCCCCC(O)CC(=O)CCc1ccc(O)c(OC)c1 | A1-1 | - | >1000 µg/mL
N=C(N)c1cccc(Oc2ccc(-c3cc4ccc(C(=N)N)cc4[nH]3)cc2)c1 | - | - | 10 µg/mL
Cc1cc(-c2nn(CCO)c(C)c2N=O)no1 | - | - | >200 µM
c1ccc(-c2n[nH]c(-c3cn(C4CCNCC4)nn3)n2)cc1 | - | agar | 50 µg/mL
COc1ccc(-c2nc3ccccn3c2O)cc1 | A | - | >125 µg/mL
Cc1ccc(OCc2n[nH]c(=S)n2N)c(C(=O)c2cccc(Cl)c2)c1 | - | - | 3 µM